Data taken from the supplement of paper PMC9931576.
Human monoclonal antibodies against the spike receptor-binding domain (heavy:light variable regions). IC50 against pseudoviruses bearing the spike of naturally observed variants; lower = stronger; >10 µg/ml means not reached at the top dose. No active / inactive call. The stated detection limit is 0.0005 µg/ml; values near or below 0.001 µg/ml lie at the floor of the assay.

B1: BD55-5311 (protein)
chain 1: EVQLVQSGGGLVQPGGSLRLSCAASGFIFNTYAMHWVRQSPGKGLEFVSSITNNGGGTFYADSVKGRFTVSRDNSKNTLYLQVGSLRAEDLAVYYCARESRVVMDTTLDYWGQGTLVIVSS
chain 2: DIQMTQSPSSLSASVGDRVTITCRASQSIARFLNWYQLRPGKAPKLLIYGASNLQGGVPSRFSGSGSGTEFTLTISGLQPEDFATYYCQQSYISPQYTFGQGTKLEIK
B2: BD55-5267 (protein)
chain 1: QVQLQESGPGLVKPSGTLSLTCAVSGGSISSSNWWSWVRQPPGKGLEWIGEIYHSGSTNYNPSLKSRVTISVDKSKNKFSLKLSSVTAADTAVYFCARAGWIESGYDAFVGYFDYWGQGTLVTVSS
chain 2: DIQMTQSPSSLSASVGDRVTITCRASQGISSSLAWYQQKPGKAPDLLLYAASGLESGVPSRFSGSGSGTDFTLSISSLQPEDFATYYCQQYYSPPRTFGQGTKLEIK
B3: BD55-5238 (protein)
chain 1: QEQLVESGGGVVQPGRSLRLSCAASGLTFSSYAMHWVRQAPGKGLEWVAVIWYNGLKKYYADSVKGRFTISRDNYKNTAYLQMSSLRAEDTAVYYCAREGGGDILTGNEFEFWGQGTLVTVSS
chain 2: QSVLTQPPSVSGAPGQTVTISCTGGSSNTGAGYDVHWYQQLPGTAPKLLIFANKNRPSGVPDRFSGSKSGTSASLSITGLQAEDEGDYYCQSYDSSLSGWVFGGGTKVTVL
B4: BD55-1036 (protein)
chain 1: QITLKESGPTLVKPTQTLTLTCTFSGFSLTTPGVGMGWIRQPPSQALELLALIYWDGDKRYSPSLKNRVTITRDTSKNQLVLTVTNVDPVDTATYYCAHTSNTPTTPAGLYFNTWGQGTRVTVSS
chain 2: QSALTQPASVSGSPGQSITISCSATNSDFGGHNIVSWYQQHPGKAPKLMIYDVTNRPSGVSNRFSGSKSGNTASLTISGLQAEDEADYYCSSYTDFVIFGGGTKLTVL
B5: BD55-5284 (protein)
chain 1: EVQLVESGGGLVQPGGSLRLSCGASGFTLSNYAMHWVRQAPGKGLEYVASITSNGVGAFYADSVKGRFTISRDNSKNTLYLQMGGLREEDMAVYYCAREGIAAFYLYFDLWGRGTLVTVSS
chain 2: DIQMTQSPYSLSASVGDRITITCRASQSIGSYLNWYQQKVGKAPKLLVYGASNLQSGVPSRFSGSGSGTDFTLTISSLQSEDFATYFCQQSYITPQYTFGQGSKVEMK
B6: BD55-5320 (protein)
chain 1: VQLVESGGGFVQPGGSLRLSCAASGFTISDFEMNWVRQAPGRELEWVSYISRSGTTIHYADSVRGRFTISRDSAENSLFLQMNSLSAEDTAVYYCARETDPCGGDCDPGAKYYYYYGMDVWGLGTTVIVSS
chain 2: DIQMTQSPSSVSASVGDRVTITCRASQDIRKWLAWYQQKPGKAPKLLIFDASSLQSGVPSRFSGSGSGTHFTLTISNLQPEDFATYYCQQAHSFPPRSFGQGTKLEI
B7: BD55-5251 (protein)
chain 1: QITLKESGPALVKPTQTLTLTCTFSGFSLSSNGVGVGWIRQSPGKALEWLALIYWDDDKRYTPSLKKRLTVTKDTSKNQVVLTMTNMDPVDTATYYCAHMARPRGLFINPSWFDPWGQGTLVTVSS
chain 2: QSVLTQPPSASGTPGQRVTISCSGSSSNIGSNTIDWYQQLPGTAPRLLIYGHDLRPSGVPDRFSGSQSGTSASLVISGLQSEDEADYYCAAWDDSLNGPVFGGGTKLTVL
B8: BD55-5271 (protein)
chain 1: QVTLKESGPVLVKPTETLTLTCTVSGISLNNARMAVSWIRQPPGKALEWLAHILSNDEKSFSKSLTSRLTISKDSSKNQVVLRLTNMDPVDTGTYYCARIVYDSSSYYYSGDNWFDPWGQGTQVTVSS
chain 2: SYELTQPPSVSVSPGQTARITCTGDAFPNQYAYWYQQKSGQAPVLVIYKDSERPSGIPERFSGSSAGTTVTLTISGVQAEDEADYYCQSADSRGVVFGGGTKVTVL
B9: BD55-5233 (protein)
chain 1: EVQLLESGGGLVQPGGSLRLSCAASGFTFSRSSMGWVRQAPGKGLEWVSTISEDGYTPYYADSVKGRFTISRDNSENRLFLQMNGLRAEDTALYYCAKDVDFDKWRQTCFDSWGQGALVTVSS
chain 2: QSVLTQPPSVSGAPGQRVTISCTGSNSNIGAGYDVHWYQQLPGTAPKLLIYGNNNRPSGVPDRFSGSKSGTSASLAITGLQAEDEADYYCQSYDSSLNVLYVFGTGTRVTVL
B10: BD55-5250 (protein)
chain 1: QVQLVQSGAEVKKPGASVKVSCKASGYTFTSNAIHWVRQAPGQRLEWMGWIMADNGYTKYSENFQGRVTITRDTSASTVYMEVSSLRSGDTAVYYCAREGSMWYSTYFDHWGQGTLVTVSS
chain 2: DIQMTQSPSSLSASVGDRVTITCRASQSISSYLTWYQQKSGTAPKLLIYAASSLQSGVPSRFSGSGSGTDFTLTISSLQPEDFATYYCQQSYTDPFTFGPGTKVDFK
B11: BD55-5196 (protein)
chain 1: QVHLVQSGAEVRKPGASVKVSCKASGYTFTSYFMYWVRQAPGHGLEWMGMIDPISGSTNYAQRFQGRVTMTRDTSTSTVNMELTSLRSEDTAVYYCARDGGIRFGDLSPDNWFDPWGRGTLVTVSS
chain 2: QSVLTQPPSVSGAPGQRVTISCTGSSSNLGAGYDVHWYQQLPGTAPKLLIYGNNNRPSGVPDRFSGSRSGTSASLAITGLLAEDEADYYCQSYDSSSLSGSKVFGTGTTVTVL
B12: BD55-5198 (protein)
chain 1: EVQLVESGGGVVKPGGSLRLSCAASGFTFSAFAMHWVRQVPGKGLEYISLISEDGYSTFYAASVTGRFTLSRDNNKKSLYLQMNSLRSEDTAFYYCAKDIGGTVAGTGADFWGQGILVTVSS
chain 2: QSVLTQPPSVSGAPGQKVTISCTGDSSNIGAGYTVHWYQQLPGTAPKLLIYGDNNRPSGVPDRFSGSKSGTSASLAITGLQAEDEADYYCQSYDTSLSGLWVFGGGTRLTVL

These binders were tested against SARS-CoV-2 Omicron BA.1 spike pseudovirus (assay: pseudovirus neutralization IC50; higher = weaker neutralization).
Experimental: (§1)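 Single-round VSV luciferase pseudovirus mixed with antibody dilutions for 1 h and put on Huh-7 cells for about a day; IC50 from the dose curve.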

Row | Binder | pseudovirus neutralization IC50
1 | B1 | > 10 µg/mL
2 | B2 | > 10 µg/mL
3 | B3 | > 10 µg/mL
4 | B4 | 0.0881 µg/mL
5 | B5 | > 10 µg/mL
6 | B6 | 4.74 µg/mL
7 | B7 | 8.9 µg/mL
8 | B8 | > 10 µg/mL
9 | B9 | > 10 µg/mL
10 | B10 | > 10 µg/mL
11 | B11 | > 10 µg/mL
12 | B12 | > 10 µg/mL

These binders were tested against SARS-CoV-2 Omicron BA.2 spike pseudovirus in the same assay as above.
Experimental: as §1

Row | Binder | pseudovirus neutralization IC50
13 | B1 | > 10 µg/mL
14 | B2 | > 10 µg/mL
15 | B3 | > 10 µg/mL
16 | B4 | 0.00361 µg/mL
17 | B5 | > 10 µg/mL
18 | B6 | 3.45 µg/mL
19 | B7 | 6.31 µg/mL
20 | B8 | > 10 µg/mL
21 | B9 | > 10 µg/mL
22 | B10 | > 10 µg/mL
23 | B11 | > 10 µg/mL
24 | B12 | > 10 µg/mL

What follows are binders tested against SARS-CoV-2 Omicron BA.2.75 spike pseudovirus in the same assay as above.
Experimental: as §1

Row | Binder | pseudovirus neutralization IC50
25 | B1 | > 10 µg/mL
26 | B2 | > 10 µg/mL
27 | B3 | > 10 µg/mL
28 | B4 | 0.0592 µg/mL
29 | B5 | > 10 µg/mL
30 | B6 | 4.33 µg/mL
31 | B7 | 8.72 µg/mL
32 | B8 | > 10 µg/mL
33 | B9 | > 10 µg/mL
34 | B10 | > 10 µg/mL
35 | B11 | > 10 µg/mL
36 | B12 | > 10 µg/mL

Each binder was assayed against SARS-CoV-2 Omicron BA.5 spike pseudovirus in the same assay as above.
Experimental: as §1

Row | Binder | pseudovirus neutralization IC50
37 | B1 | > 10 µg/mL
38 | B2 | > 10 µg/mL
39 | B3 | > 10 µg/mL
40 | B4 | 0.00541 µg/mL
41 | B5 | > 10 µg/mL
42 | B6 | > 10 µg/mL
43 | B7 | 3.62 µg/mL
44 | B8 | > 10 µg/mL
45 | B9 | > 10 µg/mL
46 | B10 | > 10 µg/mL
47 | B11 | > 10 µg/mL
48 | B12 | > 10 µg/mL

What follows are binders tested against SARS-CoV-2 Omicron BQ.1.1 spike pseudovirus in the same assay as above.
Experimental: as §1

Row | Binder | pseudovirus neutralization IC50
49 | B1 | > 10 µg/mL
50 | B2 | > 10 µg/mL
51 | B3 | > 10 µg/mL
52 | B4 | > 10 µg/mL
53 | B5 | > 10 µg/mL
54 | B6 | > 10 µg/mL
55 | B7 | > 10 µg/mL
56 | B8 | > 10 µg/mL
57 | B9 | > 10 µg/mL
58 | B10 | > 10 µg/mL
59 | B11 | > 10 µg/mL
60 | B12 | > 10 µg/mL

What follows are binders tested against SARS-CoV-2 Omicron XBB spike pseudovirus in the same assay as above.
Experimental: as §1

Row | Binder | pseudovirus neutralization IC50
61 | B1 | > 10 µg/mL
62 | B2 | > 10 µg/mL
63 | B3 | > 10 µg/mL
64 | B4 | > 10 µg/mL
65 | B5 | > 10 µg/mL
66 | B6 | > 10 µg/mL
67 | B7 | > 10 µg/mL
68 | B8 | > 10 µg/mL
69 | B9 | > 10 µg/mL
70 | B10 | > 10 µg/mL
71 | B11 | > 10 µg/mL
72 | B12 | > 10 µg/mL

These binders were tested against SARS-CoV-2 early D614G spike pseudovirus in the same assay as above.
Experimental: as §1

Row | Binder | pseudovirus neutralization IC50
73 | B1 | > 10 µg/mL
74 | B2 | 0.122 µg/mL
75 | B3 | 0.219 µg/mL
76 | B4 | 0.001 µg/mL
77 | B5 | 2.09 µg/mL
78 | B6 | 0.858 µg/mL
79 | B7 | 0.832 µg/mL
80 | B8 | 0.977 µg/mL
81 | B9 | 0.512 µg/mL
82 | B10 | 1.63 µg/mL
83 | B11 | 0.245 µg/mL
84 | B12 | 2.08 µg/mL
